A mixed list of measured activities; the numbers were collected in NIAID ChemDB.

Shared fields: tests in culture; species: HIV-1; cells: MT-2; endpoint: EC50

ECn is the concentration giving n% inhibition of infection, replication or growth. An empty or dashed field is not shown. Lines come from different laboratories, so protocols vary.

SMILES | strain or isolate | changes | read by | setting | result
Cc1cccc(Cl)c1OCCN(C)c1ccc(-c2cnc(C)c([C@H](OC(C)(C)C)C(=O)O)c2N2CCC(C)(C)CC2)nc1 | NL4-3 | - | luminescence | - | 0.004 µM
CC(C)C1=C2C3CCC4[C@@]5(C)CC[C@H](OC(=O)CC(C)(C)C(=O)O)C(C)(C)C5CC[C@@]4(C)[C@]3(C)CC[C@@]2(NC(=O)OC2CCS(=O)(=O)CC2)CC1=O | IIIB | - | RT activity | 30% human serum | <0.199 µM
CC(C)C1=C2[C@H]3CC[C@@H]4[C@@]5(C)CC[C@H](OC(=O)[C@H]6C[C@@H](C(=O)O)C6(C)C)C(C)(C)[C@@H]5CC[C@@]4(C)[C@]3(C)CC[C@@]2(CCNC(=O)c2ccc(Cl)cc2O[C@@H]2CCOC2)CC1=O | 92HT599 | - | p24 / ELISA | - | <1 µM
Cc1ncc(-c2ccc(NCCOc3ccc(Cl)cc3)nc2)c(N2CCC(C)(C)CC2)c1[C@H](OC(C)(C)C)C(=O)O | NL4-3 | - | luminescence | - | 0.0032 µM
[2H]C(CO)(CNC(=O)c1ccc(Cl)cc1)NC(=O)C[C@@]12CC[C@]3(C)[C@H](CC[C@@H]4[C@@]5(C)CC[C@H](OC(=O)[C@H]6C[C@@H](C(=O)O)C6(C)C)C(C)(C)[C@@H]5CC[C@]43C)C1=C(C(C)C)C(=O)C2 | 92HT599 | - | p24 / ELISA | - | <1 µM
Cc1ccc(OCCN(C)c2ccc(-c3cnc(C)c([C@H](OC(C)(C)C)C(=O)O)c3N3CCC(C)(C)CC3)cn2)c(Cl)c1 | NL4-3 | - | luminescence | - | 0.004 µM
COc1ccc(N(C)C(=O)[C@H](Cc2ccccc2)NC(=O)/C=C/CC(=O)N[C@@H](Cc2ccccc2)C(=O)N(C)c2ccc(OC)cc2)cc1 | NL4-3 | - | luciferase | - | 0.64 µM
C#C[C@@]1(CO)C=C[C@H](n2cc(C)c(=O)[nH]c2=O)O1 | Clinical isolate | T69ins/K70R/M184V/K219Q | recombinant virus assay | - | >46.2 µM
Cc1cccc(C)c1OCCOc1ccc(-c2cnc(C)c([C@H](OC(C)(C)C)C(=O)O)c2N2CCC(C)(C)CC2)nc1 | NL4-3 | - | luminescence | - | 0.0047 µM
CC(C)C1=C2C3CCC4[C@@]5(C)CC[C@H](OC(=O)CC(C)(C)C(=O)O)C(C)(C)C5CC[C@@]4(C)[C@]3(C)CC[C@@]2(NC(=O)OCC2CCN(C)CC2)CC1=O | IIIB | - | RT activity | 30% human serum | <0.199 µM
Cc1ncc(-c2cnc(O[C@@H](C)C3CCC3)c(F)c2)c(N2CCC(C)(C)CC2)c1[C@H](OC(C)(C)C)C(=O)O | NL4-3 | - | luminescence | - | 0.0193 µM
CCN(C(=O)[C@H](Cc1cc(F)cc(F)c1)NC(=O)NS(=O)(=O)N[C@@H](Cc1cc(F)cc(F)c1)C(=O)N(CC)c1ccc(NC(=O)OC)cc1)c1ccc(NC(=O)OC)cc1 | NL4-3 | - | luciferase | - | 1.64 µM
CC(C)C1=C2[C@H]3CC[C@@H]4[C@@]5(C)CC[C@H](OC(=O)[C@H]6CC[C@@](C)(C(=O)O)C6(C)C)C(C)(C)[C@@H]5CC[C@@]4(C)[C@]3(C)CC[C@@]2(NC(=O)OC(C)(C)C)CC1=O | IIIB | - | RT activity | 30% human serum | <0.199 µM
CC(C)C1=C2[C@H]3CC[C@@H]4[C@@]5(C)CC[C@H](OC(=O)[C@H]6C[C@@H](C(=O)O)C6(C)C)C(C)(C)[C@@H]5CC[C@@]4(C)[C@]3(C)CC[C@@]2([C@@H](O)CNCC(C)(C)NC(=O)c2ncccn2)CC1=O | 92HT599 | - | p24 / ELISA | - | <1 µM
C[C@H](Cn1cnc2c(N)ncnc21)OCP(=O)(O)O | Clinical isolate | M41L/M184V/L210W/T215Y | recombinant virus assay | - | 0.0036 µM
CC(C)C1=C2[C@H]3CC[C@@H]4[C@@]5(C)CC[C@H](OC(=O)CC(C)(C)C(=O)O)C(C)(C)[C@@H]5CC[C@@]4(C)[C@]3(C)CC[C@@]2(NC(=O)Nc2cnn(C)c2)CC1=O | IIIB | - | RT activity | 30% human serum | <0.199 µM
CC(C)C1=C2[C@H]3CC[C@@H]4[C@@]5(C)CC[C@H](OC(=O)[C@H]6C[C@@H](C(=O)O)C6(C)C)C(C)(C)[C@@H]5CC[C@@]4(C)[C@]3(C)CC[C@@]2([C@@H](O)CNCC2(NC(=O)c3ccc(Cl)cc3)CC2)CC1=O | 92HT599 | - | p24 / ELISA | - | <1 µM
CN(C(=O)[C@H](Cc1cc(F)cc(F)c1)NC(=O)NS(=O)(=O)N[C@@H](Cc1cc(F)cc(F)c1)C(=O)N(C)c1ccc2c(cnn2C)c1)c1ccc2c(cnn2C)c1 | NL4-3 | - | luciferase | - | 0.08 µM
Cc1cnc(C(=O)N[C@@]23CC[C@]4(C)C(CCC5[C@@]6(C)CC[C@H](OC(=O)CC(C)(C)C(=O)O)C(C)(C)C6CC[C@]54C)C2=C(C(C)C)C(=O)C3)o1 | IIIB | - | RT activity | 30% human serum | <0.199 µM
CC(C)C1=C2[C@H]3CC[C@@H]4[C@@]5(C)CC[C@H](OC(=O)[C@H]6C[C@@H](C(=O)O)C6(C)C)C(C)(C)[C@@H]5CC[C@@]4(C)[C@]3(C)CC[C@@]2([C@@H](O)CNC(=O)c2ccc(Cl)cc2OCCN2CCOCC2)CC1=O | 92HT599 | - | p24 / ELISA | - | <1 µM
COc1ccc(N(C)C(=O)[C@H](Cc2ccccc2)NC(=O)c2cccc(C(=O)N[C@@H](Cc3ccccc3)C(=O)N(C)c3ccc(OC)cc3)c2)cc1 | NL4-3 | - | luciferase | - | 0.09 µM
CC(C)C1=C2C3CCC4[C@@]5(C)CC[C@H](OC(=O)CC(C)(C)C(=O)O)C(C)(C)C5CC[C@@]4(C)[C@]3(C)CC[C@@]2(NC(=O)c2nnc(C(C)C)o2)CC1=O | IIIB | - | RT activity | 30% human serum | <0.199 µM
CC(C)C1=C2[C@H]3CC[C@@H]4[C@@]5(C)CC[C@H](OC(=O)[C@H]6C[C@@H](C(=O)O)C6(C)C)C(C)(C)[C@@H]5CC[C@@]4(C)[C@]3(C)CC[C@@]2([C@@H](O)CNCC(F)(CN)NC(=O)c2ccc(Cl)cc2)CC1=O | 92HT599 | - | p24 / ELISA | - | <1 µM
CC(C)C1=C2C3CCC4[C@@]5(C)CC[C@H](OC(=O)CC(C)(C)C(=O)O)C(C)(C)C5CC[C@@]4(C)[C@]3(C)CC[C@@]2(NC(=O)OCCN2CCCC2)CC1=O | IIIB | - | RT activity | 30% human serum | <0.199 µM
Cc1ncc(N(C)C(=O)[C@H](Cc2cc(F)cc(F)c2)NC(=O)NS(=O)(=O)N[C@@H](Cc2cc(F)cc(F)c2)C(=O)N(C)c2cnc(C)c(Cl)c2)cc1Cl | NL4-3 | - | luciferase | - | 0.87 µM
Cc1nnc(CNC(=O)N[C@@]23CC[C@]4(C)C(CCC5[C@@]6(C)CC[C@H](OC(=O)CC(C)(C)C(=O)O)C(C)(C)C6CC[C@]54C)C2=C(C(C)C)C(=O)C3)o1 | IIIB | - | RT activity | 30% human serum | <0.199 µM
CC(C)C1=C2[C@H]3CC[C@@H]4[C@@]5(C)CC[C@H](OC(=O)[C@H]6C[C@@H](C(=O)O)C6(C)C)C(C)(C)[C@@H]5CC[C@@]4(C)[C@]3(C)CC[C@@]2([C@@H](O)CNCc2ccc(S(C)(=O)=O)cc2)CC1=O | 92HT599 | - | p24 / ELISA | - | <1 µM
CC(C)C1=C2[C@H]3CC[C@@H]4[C@@]5(C)CC[C@H](OC(=O)CC(C)(C)C(=O)O)C(C)(C)[C@@H]5CC[C@@]4(C)[C@]3(C)CC[C@@]2(NC(=O)NCc2ccnn2C)CC1=O | IIIB | - | RT activity | 30% human serum | <0.199 µM
Cc1ccc(OCCOc2ncc(-c3cnc(C)c([C@H](OC(C)(C)C)C(=O)O)c3N3CCC(C)(C)CC3)cc2F)cc1F | NL4-3 | - | luminescence | - | 0.0015 µM

3 of the rows above, restated:

SMILES,strain or isolate,changes,read by,setting,result
CC(C)C1=C2[C@H]3CC[C@@H]4[C@@]5(C)CC[C@H](OC(=O)[C@H]6C[C@@H](C(=O)O)C6(C)C)C(C)(C)[C@@H]5CC[C@@]4(C)[C@]3(C)CC[C@@]2([C@@H](O)CNCC2(NC(=O)c3ccc(Cl)cc3)CC2)CC1=O,92HT599,-,p24 / ELISA,-,<1 µM
CCN(C(=O)[C@H](Cc1cc(F)cc(F)c1)NC(=O)NS(=O)(=O)N[C@@H](Cc1cc(F)cc(F)c1)C(=O)N(CC)c1ccc(NC(=O)OC)cc1)c1ccc(NC(=O)OC)cc1,NL4-3,-,luciferase,-,1.64 µM
CC(C)C1=C2[C@H]3CC[C@@H]4[C@@]5(C)CC[C@H](OC(=O)CC(C)(C)C(=O)O)C(C)(C)[C@@H]5CC[C@@]4(C)[C@]3(C)CC[C@@]2(NC(=O)Nc2cnn(C)c2)CC1=O,IIIB,-,RT activity,30% human serum,<0.199 µM